From PMC9951321, “Combating Escherichia coli O157:H7 with Functionalized Chickpea‐Derived Antimicrobial Peptides” (Advanced Science, 2022)

How the values were obtained:
[1] = tested on: E. coli O157:H7; experiment: LPS binding assay (competitive inhibition of antibacterial activity); conditions: purified LPS of E. coli origin, 0.5–1000 µg mL^−1, chequerboard broth microdilution
[2] = tested on: E. coli O157:H7; experiment: Gut colonized mouse model, histological evaluation of intestine; type: in vivo; conditions: ICR mice, H&E histology after 7 days; KTA 9.87, KTR 18.95, RI 38.31, RT 24.81, ciprofloxacin 30.18 µmol L^−1
[3] = tested on: Escherichia coli O157:H7 ATCC 35150; conditions: for Control (MIC values determined in the absence of proteases): E. coli O157:H7, Table S2 control, no protease
[4] = tested on: E. coli O157:H7; experiment: Membrane potential, Rhodamine 123 fluorescence; conditions: 1 h treatment
[5] = tested on: E. coli O157:H7; experiment: Food surface decontamination model (cherry tomatoes); conditions: 50 µg mL^−1, 2 mL, 10 min; inoculum around 6.20 log CFU g^−1; limit of detection 1.0 log CFU g^−1; n = 3
[6] = tested on: E. coli O157:H7; experiment: Time-kill curves; conditions: 4 × MIC, stationary phase culture, n = 3
[7] = tested on: Escherichia coli O157:H7 ATCC 35150; experiment: MBC assay; conditions: no visible colony on PCA plate after 24 h at 37 °C, triplicate
[8] = tested on: E. coli O157:H7; experiment: Outer membrane permeability, NPN uptake
[9] = tested on: Escherichia coli O157:H7 ATCC 35150; experiment: microbe, parasite or virus in culture; conditions: ATCC35150, 24 h

Question: Which “Antibacterial activity on addition of exogenous LPS (in words)” value [1] does the source give for CC[C@H](C)[C@H](NC(=O)[C@@H](N)CCCNC(=N)N)C(=O)N[C@@H](CCCCN)C(=O)N[C@H](C(=O)N[C@@H](C)C(=O)N[C@H](C(=O)N[C@@H](Cc1c[nH]c2ccccc12)C(=O)N[C@@H](CCCNC(=N)N)C(=O)N[C@@H](CC(C)C)C(=O)N[C@@H](C)C(=O)N[C@@H](CC(C)C)C(=O)N[C@@H](CCCNC(=N)N)C(=O)N[C@@H](Cc1c[nH]c2ccccc12)C(=O)N[C@@H](CC(C)C)C(=O)N[C@@H](CCCCN)C(=O)N[C@@H](CC(C)C)C(=O)O)[C@@H](C)O)[C@@H](C)O [KTA] (H-RIKTATWRLALRWLKL-OH) here?
Answer: The value was “largely abolished”.

Question: What about the “Attenuation of colitis caused by E. coli infection (in words)” value (shortened to “Attenuation of colitis caused”) [2] of the same molecule?
Answer: The value was “essentially equipotent”.

Question: What about the “Control (MIC values determined in the absence of proteases)” value (from here on “Control”) [3] of the same molecule?
Answer: Its value is 2.5 µM.

Question: What about the “Effect on membrane potential (in words)” value [4] of the same molecule?
Answer: The value was “hyper‐polarization”.

Question: What about the “E. coli O157:H7 counts on contaminated cherry tomato surface” value [5] of the same molecule?
Answer: The value was “no detectable bacteria”.

Question: And the “Time to kill almost all E. coli O157:H7 cells” value [6]?
Answer: Its value is at most 6 h.

Question: And the MBC [7]?
Answer: Its MBC is 9.9 µM (≈ 20.1 µg/mL).

Question: What about the “Time to saturation of maximum NPN uptake” value ([8]; 4 × MIC) of the same molecule?
Answer: Its value is “around 6 h”.

Question: And the “Time to saturation of maximum NPN uptake” value ([8]; 16 × MIC)?
Answer: Its value is 4 h.

Question: For CC[C@H](C)[C@H](NC(=O)[C@@H](N)CCCNC(=N)N)C(=O)N[C@@H](CCCCN)C(=O)N[C@H](C(=O)N[C@@H](CCCNC(=N)N)C(=O)N[C@H](C(=O)N[C@@H](Cc1c[nH]c2ccccc12)C(=O)N[C@@H](CCCNC(=N)N)C(=O)N[C@@H](CC(C)C)C(=O)N[C@@H](C)C(=O)N[C@@H](CC(C)C)C(=O)N[C@@H](CCCNC(=N)N)C(=O)N[C@@H](Cc1c[nH]c2ccccc12)C(=O)N[C@@H](CC(C)C)C(=O)N[C@@H](CCCCN)C(=O)N[C@@H](CC(C)C)C(=O)O)[C@@H](C)O)[C@@H](C)O [KTR] (H-RIKTRTWRLALRWLKL-OH), which “Attenuation of colitis caused” value [2] is on record?
Answer: Its value is “essentially equipotent”.

Question: What about the “Control” value [3] of the same molecule?
Answer: Its value is 4.7 µM.

Question: What about the “Effect on membrane potential (in words)” value [4] of the same molecule?
Answer: The value was “depolarized”.

Question: And the “Time to kill almost all E. coli O157:H7 cells” value [6]?
Answer: Its value is at most 4 h.

Question: And the MBC [7]?
Answer: The MBC was 7.1 µM (≈ 15 µg/mL).

Question: With CC[C@H](C)[C@H](NC(=O)CN)C(=O)NCC(=O)N[C@@H](C)C(=O)N[C@H](C(=O)N[C@@H](CC(C)C)C(=O)N[C@@H](CCCCN)C(=O)N[C@H](C(=O)N[C@@H](CC(C)C)C(=O)N[C@H](C(=O)N[C@H](C(=O)NCC(=O)N[C@@H](CC(C)C)C(=O)N1CCC[C@H]1C(=O)N[C@@H](C)C(=O)N[C@@H](CC(C)C)C(=O)N[C@H](C(=O)N[C@@H](CO)C(=O)N[C@@H](Cc1c[nH]c2ccccc12)C(=O)N[C@H](C(=O)N[C@@H](CCCCN)C(=O)N[C@@H](CCCNC(=N)N)C(=O)N[C@@H](CCCCN)C(=O)N[C@@H](CCCNC(=N)N)C(=O)N[C@@H](CCC(N)=O)C(=O)N[C@@H](CCC(N)=O)C(N)=O)[C@@H](C)CC)[C@@H](C)CC)[C@@H](C)O)[C@@H](C)O)C(C)C)C(C)C [Melittin, reference compound] as the molecule, how does the “Control” value [3] read?
Answer: The value was 12.5 µM.

Question: Which results are given for CC[C@H](C)[C@H](NC(=O)[C@@H](N)CCCNC(=N)N)C(=O)N[C@@H](CCCCN)C(=O)N[C@@H](CCCNC(=N)N)C(=O)N[C@@H](CC(C)C)C(=O)N[C@@H](C)C(=O)N[C@@H](CC(C)C)C(=O)N[C@@H](CCCNC(=N)N)C(=O)N[C@@H](Cc1c[nH]c2ccccc12)C(=O)N[C@@H](CC(C)C)C(=O)N[C@@H](CCCCN)C(=O)N[C@@H](CC(C)C)C(=O)O [RI] (H-RIKRLALRWLKL-OH)?
Answer: Attenuation of colitis caused by E. coli infection (in words) [2]: essentially equipotent; Control (MIC values determined in the absence of proteases) [3]: 9.6 µM

Question: For CC(C)C[C@H](NC(=O)[C@H](CCCCN)NC(=O)[C@H](CC(C)C)NC(=O)[C@H](Cc1c[nH]c2ccccc12)NC(=O)[C@H](CCCNC(=N)N)NC(=O)[C@H](CC(C)C)NC(=O)[C@H](C)NC(=O)[C@H](CC(C)C)NC(=O)[C@H](CCCNC(=N)N)NC(=O)[C@H](Cc1c[nH]c2ccccc12)NC(=O)[C@@H](NC(=O)[C@@H](N)CCCNC(=N)N)[C@@H](C)O)C(=O)O [RT] (H-RTWRLALRWLKL-OH), which “Attenuation of colitis caused” value [2] is on record?
Answer: The value was “slightly less active”.

Question: And the “Control” value [3]?
Answer: The value was 6.2 µM.

Question: How did the MIC [9] turn out when NC[C@H]1O[C@H](O[C@H]2[C@H](O)[C@@H](O[C@H]3O[C@H](CO)[C@@H](O)[C@H](N)[C@H]3O)[C@H](N)C[C@@H]2N)[C@H](N)C[C@@H]1O [Tob, tobramycin] was run?
Answer: The MIC was 8.6 µM (≈ 4.02 µg/mL).

Question: Which “Attenuation of colitis caused” value [2] does the source give for O=C(O)c1cn(C2CC2)c2cc(N3CCNCC3)c(F)cc2c1=O [ciprofloxacin, reference compound] here?
Answer: Its value is “essentially equipotent”.

Question: Which MIC ([3]; Escherichia coli O157:H7 ATCC 35150, broth micro-dilution in MHB, 37 °C, 24 h, read by eye, triplicate) does the source give for colistin here?
Answer: The MIC was 3.2 µM.

In brackets after ≈: the same amount, converted by molar mass. Like-named read-outs stand apart in the source and are kept apart here. Where a SMILES comes first, the peptide text is derived from it.
